Test results taken from paper PMC9701186 (2022).

Key:
CCHFV Turkey-2004 GP38 = target: T1, CCHFV Turkey-2004 GP38 (Crimean-Congo hemorrhagic fever virus, …); test: BLI
T1 chain: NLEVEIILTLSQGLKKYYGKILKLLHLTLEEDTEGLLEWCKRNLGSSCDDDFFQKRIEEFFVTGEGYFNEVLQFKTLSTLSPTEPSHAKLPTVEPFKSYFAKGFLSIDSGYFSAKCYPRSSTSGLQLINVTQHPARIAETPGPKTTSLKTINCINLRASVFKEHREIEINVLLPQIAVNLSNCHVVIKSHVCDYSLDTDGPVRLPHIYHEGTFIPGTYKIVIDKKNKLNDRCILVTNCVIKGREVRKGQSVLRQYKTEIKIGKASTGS

CCHFV IbAr10200 GP38 = target: T2, CCHFV IbAr10200 GP38 (Crimean-Congo hemorrhagic fever virus, …, UniProt Q8JSZ3 248-519); test: BLI
T2 chain: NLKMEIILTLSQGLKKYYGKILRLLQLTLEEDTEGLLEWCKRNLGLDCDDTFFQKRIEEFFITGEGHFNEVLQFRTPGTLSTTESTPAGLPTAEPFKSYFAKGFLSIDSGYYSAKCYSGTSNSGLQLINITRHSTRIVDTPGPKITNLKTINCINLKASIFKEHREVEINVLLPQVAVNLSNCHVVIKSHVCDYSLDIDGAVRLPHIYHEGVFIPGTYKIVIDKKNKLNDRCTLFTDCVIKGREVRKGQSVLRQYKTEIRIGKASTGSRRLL

B1: human chimeric 13G8 mAb (c13G8) (antibody, V domains shown)
VH: DVQLQQSGPGLVAPSQSLSITCTVSGFSLTNYGIHWVRQPPGKGLEWLGVIWAGGYTKYNSALMSRLSMSKDNSKSQVFLKMNSLQTDDTAMYYCARDEVRRDYYAMDHWGQGTTVTVSS
VL: DIQMTQSPAILSASPGEKVTMTCWASSGVSYMHWYQQKPGSSPKPWIFATSNLASGVPARFSGSGSGTSYSLTISRVEAEDAATYYCQQWSFNPLTFGAGTKLEIK
Kd (CCHFV Turkey-2004 GP38): 560 pM
Kd (CCHFV IbAr10200 GP38): 520 pM
